The values that follow come from patent US20200283532A1, “TUMOUR-TARGETING PEPTIDE VARIANTS” (Cancer Research Technology Limited, priority 2017, published 2020).

In this assay the target is integrin αvβ6 (UniProt P06756).
Peptide (16) AcHN-NK(Biotin)…-OH showed an Affinity (mean activity relative to biotinylated A20FMDV2, 100 nM) (relative to biotinylated A20FMDV2) of 1.48.

Take Peptide (17) […]2: the Affinity (mean activity relative to biotinylated A20FMDV2, 100 nM) (relative to biotinylated A20FMDV2) was 1.23. With Peptide (18) AcHN-NK(Biotin)…-NH2 the figure was 1.25; with Peptide (19) […], 1.43; with Peptide (20) […], 0.53. With Peptide (21) […] the figure was 1.57. For Peptide (22) DTPA-NK(Biotin)…-OH the value was 1.01.

Peptide (23) DTPA-GNK(Biotin)…-OH returned an Affinity (mean activity relative to biotinylated A20FMDV2, 100 nM) (relative to biotinylated A20FMDV2) of 1.28.

With Peptide (24) DTPA-NK(Biotin)…-NH2, the Affinity (mean activity relative to biotinylated A20FMDV2, 100 nM) (relative to biotinylated A20FMDV2) is 1.19. Consider Peptide (25) DTPA-nK(Biotin)…-OH, for which the Affinity (mean activity relative to biotinylated A20FMDV2, 100 nM) (relative to biotinylated A20FMDV2) stood at 1.36. Turning to Peptide (26) DTPA-nK(Biotin)…t-OH, the Affinity (mean activity relative to biotinylated A20FMDV2, 100 nM) (relative to biotinylated A20FMDV2) turned out to be 1.19.
